Anti-infective test results gathered from many reports (values: NIAID ChemDB through PubChem).

Common to all: whole-cell or culture tests; agent: Rhinovirus

ECn is the concentration giving n% inhibition of infection, replication or growth.

| SMILES | endpoint | read by | dose | cell line | strain | result |
|---|---|---|---|---|---|---|
| CN(C)c1nc(C(F)(F)F)nc2c1ncn2Cc1ccc(F)cc1 | inhibition | plaque count | 8 µM | M-HELA | Serotype 19 | 22% |
| Nc1c(S(=O)(=O)[O-])cc2cc(S(=O)(=O)[O-])ccc2c1O | inhibition | cytopathic effect | 50 µg/mL | Human embryonic lung cells |  | 65% |
| Cc1ccc(Cn2cnc3c(N(C)C)nc(C(F)(F)F)nc32)cc1 | EC50 | plaque count |  | M-HELA | Serotype 8 | >2.5 µM |
| O=C1C(c2[nH]c3ccc(S(=O)(=O)O)cc3c2O)=Nc2ccc(S(=O)(=O)O)cc21 | inhibition | cytopathic effect | 5 µg/mL | Human embryonic lung cells |  | 0% |
| CCOC(=O)/C=C/[C@H](C[C@@H]1CCNC1=O)NC(=O)[C@@H](CC(=O)[C@@H](NC(=O)c1cc(C)on1)C(C)C)Cc1ccc(F)cc1 | EC50 | cytopathic effect / visual reading |  | OHIO HELA-I | Isolate 18 | <0.01 µg/mL |
| CN(C)c1nc(C(F)(F)F)nc2c1ncn2Cc1ccc(-c2ccccc2)cc1 | EC50 | plaque count |  | M-HELA | TYPE 1B | >8 µM |
| Nc1ccc2cc([N+](=O)[O-])cc(S(=O)(=O)[O-])c2c1 | inhibition | cytopathic effect | 10 µg/mL | Human amnion AV3 cells |  | 5% |
| Cc1cc(CCCCCOc2c(Cl)cc(C3=NCCO3)cc2Cl)on1 | EC50 | plaque count |  | HeLa | TYPE 10 | 0.18 µg/mL |
| CCO/N=C/c1ccc(OCCC2CCN(c3ccc(Cl)nn3)CC2)cc1 | EC50 | neutral red |  | KB | CH47 (ICAM-1 receptor group 57) | 0.103 µM |
| CSc1ncnc2c1ncn2[C@@H]1OC2COP(=O)(O)OC2[C@H]1O | MIC |  |  |  | TYPE 1A | 1–3.2 µg/mL |
| CN(C)c1nc(C(F)(F)F)nc2c1ncn2Cc1cccc(F)c1 | inhibition | plaque count | 8 µM | M-HELA | Serotype 4 | 34% |
| Cc1cc(CCCCCOc2cc(Cl)c(-c3nnco3)c(Cl)c2)on1 | MIC80 |  |  |  | Serotype 30 | 0.1 µg/mL |
| Fc1cccc(Cn2cnc3c(Nc4cccc(F)c4)nc(C(F)(F)F)nc32)c1 | EC50 | plaque count |  | M-HELA | Serotype 79 | 25 µM |
| CN(C)c1nc(C(F)(F)F)nc2c1ncn2Cc1ccc(S(C)(=O)=O)cc1 | EC50 | plaque count |  | M-HELA | Serotype 14 | >8 µM |
| CN(C)c1ccc(Cn2cnc3c(Nc4cccc(F)c4)nc(C(F)(F)F)nc32)cc1 | EC50 | plaque count |  | M-HELA | Serotype 1B | 76 µM |
| CN(C)c1ccc(Cn2cnc3c(N(C)C)nc(C(F)(F)F)nc32)cc1 | inhibition | plaque count | 8 µM | M-HELA | Serotype 15 | 30% |
| O=S(=O)([O-])c1ccc2c(S(=O)(=O)[O-])cc(S(=O)(=O)[O-])cc2c1 | inhibition | cytopathic effect | 10 µg/mL | Human amnion AV3 cells |  | 10% |
| Cc1cc(CCCCCOc2c(C)cc(-c3nnc(C)o3)cc2C)on1 | MIC80 |  |  |  | serotype 2 1A 1B 6 14 21 22 15 25 30 50 67 89 86 41 | 0.67 µg/mL |
| CN(C)c1nc(C(F)(F)F)nc2c1ncn2Cc1ccc(C(F)(F)F)cc1 | inhibition | plaque count | 8 µM | M-HELA | Serotype 3 | 44% |
| O=P1(O)OCC2O[C@@H](n3cnc4c(NO)ncnc43)[C@H](O)C2O1 | MIC |  |  |  | TYPE 8 | 100 µg/mL |
| Cc1cc(CCCCCOc2cc(Cl)c(-c3nnc(C)o3)c(Cl)c2)on1 | MIC80 |  |  |  | Serotype 14 | 0.19 µg/mL |

A second listing of 2 rows from above:

SMILES | endpoint | read by | dose | cell line | strain | result
Cc1ccc(Cn2cnc3c(N(C)C)nc(C(F)(F)F)nc32)cc1 | EC50 | plaque count |  | M-HELA | Serotype 8 | >2.5 µM
Nc1c(S(=O)(=O)[O-])cc2cc(S(=O)(=O)[O-])ccc2c1O | inhibition | cytopathic effect | 50 µg/mL | Human embryonic lung cells |  | 65%

Conditions beyond the fields shown may differ between rows. Blank or dashed fields: not listed here. A number after MIC or MFC names an inhibition level or a share of isolates. Percent inhibition refers to the dose given; in toxicity tests it is the harm to the cells. Two numbers with a dash give a range or band.